# Reference: PubChem BioAssay AID1224833 (University of Georgia, 2016)
# Purpose: 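Host factors restraining rotavirus as candidate antiviral genes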 (primary screen)
# System: monkey MA104 kidney cells
# Reagent: siRNA pool against human genes, 50 nM
# Timing: 48 h knock-down before infection; read 24 h after infection
# Conditions: infection with rotavirus strain RV3 two days after transfection; infectious dose for this stage not given
# Detection: 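z-score of rotavirus antigen signal per well, from a fluorescent immunoassay, relative to non-targeting control wells on the same plate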
# Reading the numbers: z-score vs non-targeting control: higher = more rotavirus replication than with non-targeting control
# Rule for the call: In these data the active calls have z-score vs non-targeting control at about -1 or lower, or at about 1 or higher
# Meaning of the calls: active = z-score beyond 1 either way; inactive = z-score within 1 of zero
# The whole screen tested about 12,000 reagents; this is a part drawn at random. About 5,600 of all reagents (46%) count as active. 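Active calls cover z-scores past 1 in both directions, so they include lowered as well as raised rotavirus replication.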 Unmarked entries are inactive.
target,z-score vs non-targeting control
MPL,-0.896
OR6N2,-1.13 (active)
ITGA2B,1.54 (active)
SLC14A1,-3.42 (active)
TGFB1,-0.739
SEC14L1,-0.996
PLEKHA3,0.569
KHDC4,-0.418
CRYGS,-1.72 (active)
TASOR,2.46 (active)
IGSF5,-0.826
KAT7,0.53
ZNF112,-0.0217
NANOS1,-0.652
KLHDC1,0.382
ZFYVE16,-0.617
MBD5,-1.17 (active)
NFATC4,-3.01 (active)
TBPL2,-1.71 (active)
RARB,-1.38 (active)
OR2C3,-0.531
ZNF100,-0.15
IFNAR1,-1.29 (active)
MUCL1,-1.99 (active)
ABCA4,-1.41 (active)
FRRS1L,-0.58
CDYL,1.83 (active)
SMARCA4,2.97 (active)
ITGB2,-0.549
TSHB,-2.57 (active)
SACK1D,-0.927
RAB3IP,0.84
ZNF747,-1.81 (active)
TALDO1,-1.5 (active)
CLINT1,-1.03 (active)
C1QBP,0.607
MMS22L,1.14 (active)
ZFYVE9,-0.634
NICN1,-0.914
IMMT,-0.334
CX3CL1,-1.75 (active)
OLIG2,-0.777
GPX7,-0.737
NLRP1,-1.81 (active)
VSIG8,-2.01 (active)
ABCC12,0.653
HS3ST3B1,-2.83 (active)
CCDC140,-0.553
ZNF586,-0.609
NEU2,2.91 (active)
GMPPB,-1.77 (active)
LCE1E,-0.821
HABP4,0.642
CAPRIN1,-1.62 (active)
DGLUCY,0.284
ARID3B,1.55 (active)
VPS26A,0.18
ETV2,-0.262
LIG3,-1.28 (active)
FUBP3,-0.964
OSTN,0.947
RBM7,-1.12 (active)
RAX,-0.619
ATP6V1E1,-0.9
ESF1,-2.66 (active)
CRIP1,1.11 (active)
DDX43,-2.44 (active)
HOXA13,-1.21 (active)
CDCA7,1.05 (active)
ATP10D,0.808
TPRKB,-0.492
EIF3L,1.46 (active)
RFXANK,-1.79 (active)
GKN2,-0.147
SOX7,-0.0195
YARS2,1.49 (active)
PTCRA,0.337
POC1B,1.2 (active)

21 neighbouring entries already listed, quoted:
target,z-score vs non-targeting control
NICN1,-0.914
IMMT,-0.334
CX3CL1,-1.75 (active)
OLIG2,-0.777
GPX7,-0.737
NLRP1,-1.81 (active)
VSIG8,-2.01 (active)
ABCC12,0.653
HS3ST3B1,-2.83 (active)
CCDC140,-0.553
ZNF586,-0.609
NEU2,2.91 (active)
GMPPB,-1.77 (active)
LCE1E,-0.821
HABP4,0.642
CAPRIN1,-1.62 (active)
DGLUCY,0.284
ARID3B,1.55 (active)
VPS26A,0.18
ETV2,-0.262
LIG3,-1.28 (active)

Additional results:
target,z-score vs non-targeting control
TMEM252,-1.72 (active)
IDE,0.809
TBL1Y,-1.51 (active)
RAD52,-0.639
EMC2,1.43 (active)
BLVRA,-3.12 (active)
H4C11,-1.89 (active)
CER1,0.131
CD300LG,0.831
PCSK2,1.2 (active)
OLA1,-0.335
TOP6BL,-1.02 (active)
UBXN10,2.58 (active)
PPP6R1,-1.07 (active)
PSMC3,-1.77 (active)
ENSA,-0.715
SNRNP35,-1.95 (active)
H1-5,-1.57 (active)
PCBP2,-1.37 (active)
WDR36,-0.837
MRPL30,-1.11 (active)
RIT2,-2.41 (active)
RIMS2,-1.18 (active)
ARHGAP33,-0.883
DEAF1,1.1 (active)
SRRM4,0.535
ARPP21,0.133
GCNA,0.623
MPI,-1.01 (active)
CENPC,-2.09 (active)
FAIM,-0.991
MICOS13,-0.215
ATF3,1.77 (active)
ZNF205,-0.301
TXNDC17,-0.521
C8orf76,-0.459
ZMIZ1,-1.91 (active)
CHLSN,0.807
ZNF217,0.0863
PAGE2,1.59 (active)
KLC2,0.213
CARD6,-2.17 (active)
ARB2A,-1.08 (active)
SRSF12,0.794
FBN2,0.432
BPY2B,0.368
TMEM207,-1.35 (active)
SNRPG,-0.191
LMAN1L,-0.129
SLC36A1,1 (active)
COQ9,3.08 (active)
RPP38-DT,-1.15 (active)
VPS26C,0.288
TCF25,-0.762
ENG,-0.809
PSTPIP1,0.139
HOXA4,0.715
ARHGEF26,1.78 (active)
TMEM9B,0.405
SAFB2,0.255
EMILIN3,-2.66 (active)
RAB3GAP2,0.7
